# Test system: Pa-LPS induced lung injury
# Experiment: Pa-LPS-induced lung injury, immunostaining of lung sections for ceramide, NFκB and NIMP-R14
# [1] = Cftr-/- mice, 50 μg/mouse i.t., 24 hrs
structure (smiles),measurement,setting,value
"CN(C)CCC=C1c2ccccc2CCc2ccccc21 [AMT, Amitriptyline]",controlling Pa-LPS induced lung injury (representative sections),Cftr+/+ mice,relatively less effective
same,Pa-LPS induced NFκB levels (lung immunostaining),[1],significant decrease
same,Pa-LPS induced ceramide accumulation (lung immunostaining),[1],significant decrease
same,Pa-LPS induced neutrophil infiltration (NIMP-R14),[1],significant decrease

# — patent US20130131146A1, “Compositions and Methods for Treating Pulmonary Conditions” (THE JOHNS HOPKINS UNIVERSITY, priority 2010, published 2013)
